Measured values from several laboratories, pooled; numbers as filed in NIAID ChemDB.

Shared fields: host cell toxicity; cells: HepG2 cells; endpoint: CC50

Neighbouring rows are from separate reports. CCn is the concentration with n% toxicity to the cells.

{"SMILES": "O=C(Oc1cc(Cl)ccc1C(=O)Nc1ccc(Cl)c(Cl)c1)c1ccccc1", "method": "tetrazolium", "result": "2.54 µM"}
{"SMILES": "Fc1ccc(CNCCCNc2ccnc3cc(Cl)ccc23)cc1", "method": "MTT", "result": "5.433 µM"}
{"SMILES": "O=C(Cc1cccs1)N/N=C/c1ccccn1", "method": "MTT", "result": "17.8 µM"}
{"SMILES": "CCN(CC)CCN1C(=O)c2ccccc2NC1c1ccccc1F", "method": "luminescence", "result": ">20 µM"}
{"SMILES": "CC(C)(C)c1ccc(CNCCNc2ccnc3cc(Cl)ccc23)cc1", "method": "MTT", "result": "10.4 µM"}
{"SMILES": "O=C(Oc1cc(Cl)ccc1C(=O)Nc1cccc(Br)c1)c1cnccn1", "method": "tetrazolium", "result": "7.04 µM"}
{"SMILES": "COc1ccncc1CNCCCNc1ccnc2cc(Cl)ccc12", "method": "MTT", "result": "4.968 µM"}
{"SMILES": "CCCCN1C(=O)c2ccccc2NC1c1ccc(OC)c(COc2ccc(F)cc2)c1", "method": "luminescence", "result": ">20 µM"}
{"SMILES": "COc1cc(C)cc(/C=N/NC(=O)Cc2cccs2)c1O", "method": "MTT", "result": "1020 µM"}
{"SMILES": "CCN(CC)CCN1C(=O)c2ccccc2NC1c1ccc(OC)c(COc2ccc(F)cc2)c1", "method": "luminescence", "result": ">30 µM"}
{"SMILES": "O=C(Nc1ccc(C(F)(F)F)cc1)c1cc(Br)ccc1O", "method": "tetrazolium", "result": "2.71 µM"}
{"SMILES": "CCN(CC)CCN1C(=O)c2ccccc2NC1c1ccc(OC)c(COc2cc(C(C)C)c(Cl)cc2C)c1", "method": "luminescence", "result": ">20 µM"}
{"SMILES": "COc1ccc(CNCCCNc2ccnc3cc(Cl)ccc23)cc1", "method": "MTT", "result": "4.808 µM"}
{"SMILES": "O=C(Nc1ccc(C(F)(F)F)cc1)c1cc(Cl)ccc1O", "method": "tetrazolium", "result": "0.36 µM"}
{"SMILES": "CCN(CC)CCN1C(=O)c2ccccc2NC1c1ccc(Br)cc1", "method": "luminescence", "result": ">30 µM"}

Repeating the final 2 entries:

SMILES,method,result
O=C(Nc1ccc(C(F)(F)F)cc1)c1cc(Cl)ccc1O,tetrazolium,0.36 µM
CCN(CC)CCN1C(=O)c2ccccc2NC1c1ccc(Br)cc1,luminescence,>30 µM